Measurements as given in patent publication US20250382354A1 (INSTITUTE FOR RESEARCH IN BIOMEDICINE IRB, published 2025).

How the values were obtained:
Experiment in all cases: protein ELISA
[1] = biological target: T1, SARS-CoV-2 S Omicron BA.4/BA.5 (ectodomain) (SARS-CoV-2 Omicron BA.4/BA.5)
T1 construct: extracellular domain

[2] = biological target: T2, SARS-CoV-2 S Omicron BA.1 (ectodomain) (SARS-CoV-2 Omicron BA.1)
T2 construct: extracellular domain

[3] = biological target: T3, SARS-CoV-2 S Delta (ectodomain) (SARS-CoV-2 Delta)
T3 construct: extracellular domain

SARS-CoV-2 SD1-RBD Gamma = biological target: T4, SARS-CoV-2 SD1-RBD Gamma (SARS-CoV-2 Gamma)
T4 construct: domain: SD1-RBD

SARS-CoV-2 SD1-RBD Beta = biological target: T5, SARS-CoV-2 SD1-RBD Beta (SARS-CoV-2 Beta)
T5 construct: domain: SD1-RBD

SARS-CoV-2 SD1-RBD Delta = biological target: T6, SARS-CoV-2 SD1-RBD Delta (SARS-CoV-2 Delta)
T6 construct: domain: SD1-RBD

[4] = biological target: T7, SARS-CoV-2 SD1-RBD Omicron BA.2 (SARS-CoV-2 Omicron BA.2)
T7 construct: domain: SD1-RBD

[5] = biological target: T8, SARS-CoV-2 SD1-RBD Omicron BA.5.9 (SARS-CoV-2 Omicron BA.5.9)
T8 construct: domain: SD1-RBD

[6] = biological target: T9, SARS-CoV-2 SD1-RBD Omicron BA.4.7 (SARS-CoV-2 Omicron BA.4.7)
T9 construct: domain: SD1-RBD

[7] = biological target: T10, SARS-CoV-2 SD1-RBD Omicron BA.2.75.2 (SARS-CoV-2 Omicron BA.2.75.2)
T10 construct: domain: SD1-RBD

[8] = biological target: T11, SARS-CoV-2 SD1-RBD Omicron BA.4.6 (SARS-CoV-2 Omicron BA.4.6)
T11 construct: domain: SD1-RBD

Row | Binder | EC50 [1] | EC50 [2] | EC50 [3] | EC50 (SARS-CoV-2 SD1-RBD Gamma) | EC50 (SARS-CoV-2 SD1-RBD Beta) | EC50 (SARS-CoV-2 SD1-RBD Delta) | EC50 [4] | EC50 [5] | EC50 [6] | EC50 [7] | EC50 [8]
1 | rbd.048 (antibody, V domains shown) VH: EVQLVESGGGLVQPGGSLRLSCAASGFTVSSNYMTWVRQAPGKGLEWVSVIYSGGSTFYTDSVKGRFTISRDNSKNTLYLQMNSLRAEDTAVYYCARDVVYYGMDVWGQGTTVTVSS VL: DIQMTQSPSSLSASVGDRVTITCRASQSISSYLNWYQQKPGKAPKLLIYAASSLQSGVPSRFSGSGSGTDFTLTISSLQPEDFATYYCQESYSNSPYTFGQGTKLEIK | 44.1 µg/mL | 0.21 µg/mL | 0.0114 µg/mL | 0.0785 µg/mL | 0.936 µg/mL | 0.0122 µg/mL | – | – | – | – | –
2 | sd1.102 (antibody, V domains shown) VH: QVQLVQSGAEVKKPGSSVKVSCKASGGTFSSYAISWVRQAPGQGLEWMGGIIPLYGTANYAQKFQGRVTITADESTSTTYMELSSLTSEDTAVYYCVRFRGGDYYYYYGMDVWGQGTTVTVSS VL: EIVMTQSPATLSVSPGESATLSCRASQTVSTNLAWYQQKPGQAPRLLIFGASTRATGIPARFSGSGSGTEFTLSISSLQSEDFAVYYCHQYNSRRTFGQGTKLEIK | 0.537 µg/mL | 2.22 µg/mL | 0.0996 µg/mL | 1.26 µg/mL | 3.17 µg/mL | 0.811 µg/mL | – | – | – | – | –
3 | sd1.132 (antibody, V domains shown) VH: QVQLVQSGTEVKKPGSSVKVSCKASGGTFSSYAISWVRQAPGQGLEWMGGIIPMFGAPNYAQKVQGRVTITADESTSTAYMELSSLRSEDTAVYYCARMEYSNSPGRGGYYFYSNGMDVWGQGTTVTVSS VL: EIVLTQSPATLSLSPGERATLSCRASQSVSTYLAWLQQKPGQAPRLLMYDASNRASGIPARFSGSGSGTEFTLTISSLEPEDFAVYYCQQRTYWPLTFGGGTKVEIK | 0.354 µg/mL | 1.01 µg/mL | 0.0694 µg/mL | 0.932 µg/mL | 1.82 µg/mL | 0.919 µg/mL | 3.13 µg/mL | – | – | – | –
4 | sd1.034 (antibody, V domains shown) VH: EVQLVESGGGVVQPGRSLRLSCAASGFSFSNYGMHWVRQAPGKGLEWVAVISYDGSHKSFADSVKGRFTISRDNSKNTLNLQMNSLRREDTAVYYCATDQGGSLGYWGQGTLVTVSS VL: QSALTQPASVSGSPGQSITISCTGTSGDVGGYNYVSWYQHHPGKAPKLMIYDVSNRPSGVSNRFSGSKSGNTASLTISGLQAEDEADYYCSSYTSTSTSWVFGGGTKLTVL | 0.0416 µg/mL | 0.0683 µg/mL | 0.0232 µg/mL | 0.0206 µg/mL | 0.0191 µg/mL | 0.0112 µg/mL | – | 0.0298 µg/mL | 0.0335 µg/mL | 0.0344 µg/mL | –
5 | rbd.049 (antibody, V domains shown) VH: QLQLQESGPGLVKPSETLSLSCTVSGGSISSKSDYWGWIRQSPGKGLEWIGSIYYTGTTYYNPSLKSRVSISLDKSKNQFSLKLNSLTAADTALYYCARDPSIAVATTVYFDAWGQGTLVTVSS VL: EIVLTQSPGTLSLSPGERATLSCRASESVKSNYLAWYQQKLGQPPRLLIFGASTRATGIPDRFSGSGSGTDFTLTISRLEPEDFAVYYCQQYHTSPPRYTFGQGTKLEIK | 4.2 µg/mL | – | 0.11 µg/mL | 1.49 µg/mL | 1.18 µg/mL | 0.017 µg/mL | – | – | – | – | –
6 | sd1.039 (antibody, V domains shown) VH: EVQLVQSGAEVKKPGESLKISCKASGYSFPTYWIGWVRQMPGKGLEWMGIIYPGDSDTRYSPSFQGQVTISADKSISTAYLQWSSLKASDTAIYYCARYGDSHIDSWGQGTLVTVSS VL: QSVLTQPRSASASLGASVTLNCTLSSGYSKYKVEWYQQRPGKGPRFLMRVGAGGIVGSKGDGIPDRFSVLGSGLNRYLIIKNIQQEDESDYHCGADHGSGSNFAYVVFGGGTKLTVL | 0.0323 µg/mL | 0.0597 µg/mL | 0.0423 µg/mL | 0.0235 µg/mL | 0.0236 µg/mL | 0.0186 µg/mL | 0.0224 µg/mL | 0.0305 µg/mL | 0.0391 µg/mL | 0.0273 µg/mL | 0.0372 µg/mL
7 | sd1.129 (antibody, V domains shown) VH: QVQLVQSGAEVKRPGSSVKVSCKASGGAFSNYAISWVRQAPGQGLEWMGGIIPIFGTTNYAQRFQGRVTISADESTGTAYMELSSLRFADTAIYYCARADAYSGSYYPSANWFDPWGQGTLVTVSS VL: EIVLTQSPATLSLSPGERATLSCRASQSVSNYLAWYQQKPGQAPRLLIYDASNRATGIPARFSGSGSGTDFTLTISSLEPEDFAVYYCQQRQNWPPGWTFGQGTKVEIK | 0.0983 µg/mL | 0.277 µg/mL | – | 0.324 µg/mL | 1.84 µg/mL | 0.28 µg/mL | 1.3 µg/mL | – | – | – | –
8 | sd1.033 (antibody, V domains shown) VH: QVQLVQSGAEVKKPGSSVKVSCKASGGVYSTYAVSWVRQAPGQGLEWIGGIIPMFGTANYAQNFQGRVTITADESTRTAYMEVSSLRSEDTAVYYCASPSAPTYYYDSSRYYSFDYWGQGTLVTVSS VL: EIVLTQSPGTLSLSPGERATLSCRASQSVSSNFLAWFQQKPGQPPRLLIYGASSRATGIPDRFSGSGSGTDFTLTISRLVPEDFAVYFCQQYGSSRYSFGQGTKLEIK | 0.438 µg/mL | 1.26 µg/mL | 0.0859 µg/mL | 0.0345 µg/mL | 0.0385 µg/mL | 0.0222 µg/mL | 0.383 µg/mL | – | – | – | –
9 | sd1.103 (antibody, V domains shown) VH: QVQLVQSGAEVKKPGSSMKVSCKASGGTLNNYAIIWVRQAPGQGLEWMGGIIPMFGAANYAQNFQGRVTITADESTRTAYLELSSLRSEDTAMYYCARVVIPYLGAHYYHYGVDVWGQGTTVTVSS VL: EIVLTQSPGTLSLSPGERATLSCRASQSVTSNYLAWYQQKPGQAPRLLIYGASSRAAGIPDRFNGSGSGTDFTLTISRLEPEDFAVYYCQQYGSSRYTFGQGTKLEIK | 0.239 µg/mL | 2.03 µg/mL | 0.0624 µg/mL | 0.244 µg/mL | 0.358 µg/mL | 0.3 µg/mL | 0.508 µg/mL | – | – | – | –
10 | sd1.040 (antibody, V domains shown) VH: QVQLVQSGAEVKKPGASVKVSCKASGYTFTSFYIHWVRQAPGQGLEWMGIIDPSGGSTSYPQKFQGRVTMTRDTSTSTVYMDLSSLRSEDTAVYYCTRDGSAGDNSWFDPWGQGTLVTVSS VL: DIVMTQSPDSLAVSLGERATINCKSSRNVLYSSNNKNYLAWYQQKPGQPPKLLIYWASARESGVPDRFSGSGSGTDFTLTISSLQAEDVAVYYCQQYYNTPYTFGQGTKLEIK | 0.0234 µg/mL | 0.0316 µg/mL | 0.0178 µg/mL | 0.0191 µg/mL | 0.0203 µg/mL | 0.0158 µg/mL | 0.0153 µg/mL | 0.0273 µg/mL | 0.0357 µg/mL | 0.0272 µg/mL | 0.038 µg/mL
11 | sd1.100 (antibody, V domains shown) VH: QVQLQESGPGLVKPSQTLSLTCSVSGDSITSGNYYWSWIRQHPGKGLEWIGNIFHTGNTYYNPSLKSRVTISIDTSKNQFSLKLSSVTAADTALYYCARDHKRLEGDWFDPWGQGSLVTVSS VL: QSVLTQPPSASGTPGQRVTISCSGSSSNIGSNTVNWYLQLPGTAPKLLIYSNNLRPSGVPDRFSGSKSGTSASLAISGLQSGDEADYFCAAFDDSLSGPVFGGGTKLTVL | 0.309 µg/mL | 1.84 µg/mL | 0.309 µg/mL | – | – | 2.4 µg/mL | 0.0739 µg/mL | 0.21 µg/mL | 0.186 µg/mL | 0.19 µg/mL | 0.199 µg/mL
12 | rbd.045 (antibody, V domains shown) VH: QVQLQESGPGLVKPSETLSLTCTVSGGAFRSFFWTWIRQPPGKGLEWIGNIYYSGSTNYNPSLKSRVTISQDMSENQFSLKLSSVTAADTAVYYCARSQWLRGNFDHWGQGILVTVSS VL: NFMLTQPHSVSESPGKTVTISCTATSGYIASNYVQWYQQRPGSAPTTVIYEDNQRPSGVPDRFSGSIDSSSNSASLTISGLKPEDEADYYCQSFDTAYAVFGGGTQLTVL | 0.159 µg/mL | – | 0.0314 µg/mL | 0.0258 µg/mL | 0.0323 µg/mL | 0.0232 µg/mL | 0.0384 µg/mL | 0.35 µg/mL | 0.407 µg/mL | – | 0.383 µg/mL
13 | rbd.038 (antibody, V domains shown) VH: QVQLVQSGAEVKKPGASVKVSCKASGYTFSGYYMHWVRQAPGQGLEWVGWISPTSGGTKYAQKFQGRVTMTRDTSITTVYMELNRLRSDDTAVYYCAREPFPYCTSDICHSNYFYYYAMDVWGQGTTVTVSS VL: QSALTQPPSASGSPGQSVTISCTGSSSDLGDHNYVSWYQQHPGKAPKVMIYEVSKRPSGVPDRFSGSKSGNTASLTVSGLQAEDEADYYCSSYAGSLYVFGTGTKVTVL | 3.41 µg/mL | 3.11 µg/mL | 0.0175 µg/mL | 0.0173 µg/mL | 0.0357 µg/mL | 0.016 µg/mL | – | – | – | – | –
14 | sd1.107 (antibody, V domains shown) VH: QVQLVQSGAEVKKPGSSVKVSCKASGGTFSSYAISWVRQAPGQGLEWMGGIIPMFGTTNYAQKFQGRVTITADESTSTAYMELSSLRSEDTAVYYCARVTHLNWRRGYEVGRISGAFDIWGQGTMVTVSS VL: not shown | 2.96 µg/mL | 2.8 µg/mL | 1.56 µg/mL | 5.96 µg/mL | – | – | 6.3 µg/mL | – | – | – | –
